Measured values as given in patent US20070172471A1, “Method for identifying an anti- streptococcal agent and its use for treating streptococcal infections” (Hansa Medical AB, priority 2003, published 2007).

Test system: fibrinogen in human plasma
Test: Precipitation assay

Substance: M1 protein: recombinant M1 protein of Streptococcus pyogenes expressed in E. coli (SEQ ID NO: 1)
- precipitation in plasma (M1 protein 1 μg/ml, plasma diluted 1/10, FIG. 3A): provoked a visible precipitation
- precipitation in fibrinogen-deficient plasma (data not shown): no precipitation occurred
- precipitation in fibrinogen solution (purified M1 protein and fibrinogen, same concentrations as in plasma, FIG. 3C): a precipitate was formed
